Results of unrelated studies side by side (data: NIAID ChemDB).

All rows: toxicity to cultured cells; cell line: MT-4; read-out: CC50

Blank or dashed fields: not listed here. CCn: concentration that lowers growth or viability of the cells by n%. Rows are shuffled and stem from different studies.

structure | read by | result
Cc1cc(C#N)cc(C)c1Oc1nc(Nc2ccc(C#N)cc2)ncc1SCC(=O)Nc1ccc(S(C)(=O)=O)cc1 | MTT | >208.4 µM
Nc1nc(=O)n([C@H]2C[C@H](O)[C@@H](CO)O2)cc1[N+](=O)[O-] | - | 38 µM
Cc1cn([C@@H]2O[C@H](CO[Si](C)(C)C(C)(C)C)C3(OS(=O)(=O)C=C3N)[C@H]2O[Si](C)(C)C(C)(C)C)c(=O)n(CCCCCCO/C(=C/C(=O)c2ccccc2)c2ccccc2)c1=O | - | >100 µM
COc1ccc(-c2cc(-c3ccccc3)c(C#N)c(=O)n2[C@@H]2O[C@H](COC(C)=O)[C@H](OC(C)=O)[C@H](OC(C)=O)[C@H]2OC(C)=O)cc1 | XTT | >11.4 µM
Nc1nc2c(ncn2[C@H]2C=C[C@@H](OCP(=O)(O)O)C2)c(=O)[nH]1 | - | 153 µM
CCOC(=O)c1[nH]c2ccccc2c1Sc1ccccc1 | - | 1.4 µM
CN(C)c1ccc(/C=C/C(=O)C2CCC3C4CC=C5C[C@@H](O)CC[C@]5(C)C4CC[C@]23C)c(Cl)c1 | - | 12.95 µM
Cn1cnc(CN2CCn3c(nc(C(=O)NCc4ccc(F)cc4)c(O)c3=O)C2(C)C)n1 | microscopy | >1 µM
O=S(=O)(O)c1cc(S(=O)(=O)O)c2cc(OS(=O)(=O)c3cccc4c(S(=O)(=O)Oc5ccc6cc(S(=O)(=O)O)cc(S(=O)(=O)O)c6c5)cccc34)ccc2c1 | - | >100 µM
Cc1cc(C#N)cc(C)c1Oc1nc(Nc2ccc(C#N)cc2)ncc1SCC(=O)NC1CCN(C(=O)OC(C)(C)C)CC1 | MTT | >208.4 µM
Nc1nc2c(ncn2[C@H]2C=C[C@@H](CO)[C@@H]2CO)c(=O)[nH]1 | - | >100 µg/mL
CC(=O)C(CCCCCCCn1c(=O)c(C)cn([C@@H]2O[C@H](CO[Si](C)(C)C(C)(C)C)C3(OS(=O)(=O)C=C3N)[C@H]2O[Si](C)(C)C(C)(C)C)c1=O)C(C)=O | - | >250 µM
COC(=O)Cn1c(=O)c(C)cn([C@H]2C=C[C@@H](CO[Si](C)(C)C(C)(C)C)O2)c1=O | - | 23 µM
CCc1c(Sc2ccccc2)n(COCc2ccccc2)c(=S)[nH]c1=O | - | >10 µM
C=C(C)[C@]1(O)C[C@@H](C)[C@@]2(O)[C@H]([C@H]1OC(=O)/C=C/C=C/CCCCC)[C@@H]1O[C@]1(CO)[C@@H](O)[C@]1(O)C(=O)C(C)=C[C@H]12 | MTT | 62.7 µM
Cc1c(Sc2ccccc2)n(COCCF)c(=O)[nH]c1=O | - | 191 µM
COC(=O)CCCCn1c(=O)c(C)cn([C@@H]2O[C@H](CO[Si](C)(C)C(C)(C)C)[C@@H](O)[C@H]2O[Si](C)(C)C(C)(C)C)c1=O | - | 18 µM
CCOCn1c(Sc2ccccc2)c(CC)c(=O)[nH]c1=O | - | 133 µM
COC(=O)Cn1c(=O)c(C)cn([C@@H]2O[C@H](CO[Si](C)(C)C(C)(C)C)[C@@H](O)[C@H]2O[Si](C)(C)C(C)(C)C)c1=O | - | 11 µM
Cc1c(Sc2ccccc2)n(COCCN=[N+]=[N-])c(=O)[nH]c1=O | - | 169 µM
Nc1ccn([C@@H]2C=CC[C@@H](CO)O2)c(=O)n1 | - | >100 µM
CC(C)(C)[Si](C)(C)OC[C@@H]1CC[C@H](n2cnc3c(=O)n(CC(=O)O)cnc32)O1 | - | >200 µM
Cc1ccc(-c2c(C)c3c(c(C)c2[C@H](OC(C)(C)C)C(=O)O)N(S(C)(=O)=O)Cc2cccc(F)c2-3)cc1 | MTT | 17 µM
O=C(CCOCC(COCCC(=O)NC(Cc1c(-c2cc(C(=O)O)cc(C(=O)O)c2)[nH]c2ccccc12)C(=O)O)(COCCC(=O)NC(Cc1c(-c2cc(C(=O)O)cc(C(=O)O)c2)[nH]c2ccccc12)C(=O)O)COCCC(=O)NC(Cc1c(-c2cc(C(=O)O)cc(C(=O)O)c2)[nH]c2ccccc12)C(=O)O)NC(Cc1c(-c2cc(C(=O)O)cc(C(=O)O)c2)[nH]c2ccccc12)C(=O)O | MTS | >100 µM
O=C(NCCCN1CCCC2=C[C@@H]3C[C@@H](CN4CCCC[C@H]34)[C@@H]21)c1c(F)cc(Br)cc1F | luminescence | >20 µM
C[C@]12CCC3C(CC=C4C[C@@H](O)CC[C@@]43C)C1CCC2C(=O)/C=C/c1ccc2c(c1)Cc1ccccc1-2 | - | 7.62 µM
N#Cc1cc(Cl)cc(Oc2cc(OCc3[nH]nc4cnccc34)ccc2Cl)c1 | - | >8.3 µM
c1cc(CNCc2ccc(CN3CCCNCCNCCCNCC3)cc2)ccn1 | MTT | >250 µg/mL
CCCCCCCCCCCCCCCCOCC(COP(=O)(O)O)OCCCCCCCCCCCCCCCC | MTT | >5 µM
CC(=O)OC[C@H]1O[C@@H](n2c(-c3ccc(N)cc3)cc(-c3ccco3)c(C#N)c2=O)[C@H](OC(C)=O)[C@@H](OC(C)=O)[C@@H]1OC(C)=O | XTT | >11.8 µM
Cc1cc(C#N)cc(C)c1Oc1nc(Nc2ccc(C#N)cc2)ncc1SCC(N)=O | MTT | >208.4 µM
O=c1ccn([C@@H]2CC=C[C@@H](CO)O2)c(=O)[nH]1 | - | >100 µM
O=C(NCCCCCCN1CCC[C@H]2C[C@@H]3C[C@@H](CN4CCCC[C@H]34)[C@@H]21)c1ccc(OC(F)(F)F)cc1 | luminescence | >20 µM
Cc1ccc(C2CC(C3CCC4C5CC=C6CC(O)CC[C@]6(C)C5CC[C@]34C)=NN2C(N)=S)cc1 | - | 7.49 µM
O=C(O)c1c(Cl)c(Cl)c(Cl)c(Cl)c1-c1c2cc(I)c(=O)c(I)c-2oc2c(I)c(O)c(I)cc12 | - | >1 µM
CC(C)[C@H](NC(=O)[C@H](NCc1ccccc1)[C@H](O)[C@H](Cc1ccccc1)NC(=O)[C@@H](NC(=O)OCc1ccccc1)C(C)(C)C)C(=O)NCc1ccccc1 | - | 6.2 µM
Cc1cc(C#N)cc(C)c1Oc1nc(Nc2ccc(C#N)cc2)ncc1SCC(=O)NCC1CC1 | MTT | 20.7 µM
CC1CCNC2CCCCC2NC(C)CCNC2CCCCC2N1 | MTT | >372 µM
C[C@]12CCC3C(CC=C4C[C@@H](O)CC[C@@]43C)C1CCC2C(=O)/C=C/c1ccoc1 | - | 12 µM
Cc1cn([C@H]2C=C[C@@H](CO)O2)c(=O)[nH]c1=O | - | >600 µM
Cc1cc(C#N)cc(C)c1Oc1nc(Nc2ccc(C#N)cc2)ncc1SCC(=O)NCC1CCCO1 | MTT | 24.7 µM
CC(C)[C@H](NC(=O)OCc1ccccc1)C(=O)N[C@@H](Cc1ccccc1)[C@@H](O)[C@@H](NCc1ccc(Br)cc1)C(=O)N[C@H](C(=O)NCc1nc2ccccc2[nH]1)C(C)C | - | 8.3 µM
Cc1ccc(-c2c(C)c3c(c(C)c2[C@H](OC(C)(C)C)C(=O)O)N(S(C)(=O)=O)Cc2cccc(F)c2-3)c(O)c1 | MTT | >50 µM
Cc1ccc(/C=C/C(=O)C2CCC3C4CC=C5C[C@@H](O)CC[C@]5(C)C4CC[C@]23C)cc1 | - | 51.7 µM
C=CCNC(=O)CSc1cnc(Nc2ccc(C#N)cc2)nc1Oc1c(C)cc(C#N)cc1C | MTT | 30.4 µM
Cc1cn([C@H]2CC=C[C@@H](CO)O2)c(=O)[nH]c1=O | - | >100 µM
CCCCCCCCCCCCCCCCCCOC1C(OCc2ccccc2)C2COC(O2)C1OCc1ccccc1 | MTT | >163 µg/mL
CC1(C)c2nc(C(=O)NCc3ccc(F)cc3)c(O)c(=O)n2CCN1CC(=O)N1CCCC1 | microscopy | >1 µM
Nc1ccn([C@@H]2CC=C[C@@H](CO)O2)c(=O)n1 | - | >100 µM
O=C(NCCCCCCN1CCCC2=C[C@@H]3C[C@@H](CN4CCCC[C@H]34)[C@@H]21)c1c(F)cc(Br)cc1F | luminescence | >20 µM
CC(=O)C(CCCCCCCCCn1c(=O)c(C)cn([C@@H]2O[C@H](CO[Si](C)(C)C(C)(C)C)C3(OS(=O)(=O)C=C3N)[C@H]2O[Si](C)(C)C(C)(C)C)c1=O)C(C)=O | - | 235 µM
CNOC(=O)Cn1c(=O)c(C)cn([C@@H]2O[C@H](CO[Si](C)(C)C(C)(C)C)[C@@H](O)[C@H]2O[Si](C)(C)C(C)(C)C)c1=O | - | 4.2 µM
CCC(=O)OCCOCn1c(Sc2ccccc2)c(C)c(=O)[nH]c1=O | - | 292 µM
C[C@]12CCC3C(CC=C4C[C@@H](O)CC[C@@]43C)C1CCC2C(=O)/C=C/c1ccc(C(F)(F)F)cc1 | - | 55.38 µM
CC(=O)OC[C@H]1O[C@@H](n2c(-c3ccc(N)cc3)cc(-c3ccccc3)c(C#N)c2=O)[C@H](OC(C)=O)[C@@H](OC(C)=O)[C@@H]1OC(C)=O | XTT | >11.6 µM
Cc1c(Sc2ccccc2)n(COCCOC(=O)C2CCCCC2)c(=O)[nH]c1=O | - | 78 µM
O=C(NCCCCCCN1CCC[C@@H]2C[C@@H]3C[C@@H](CN4CCCC[C@H]34)[C@@H]21)c1c(F)cc(Br)cc1F | luminescence | >20 µM
Cc1cn([C@@H]2O[C@H](CO[Si](C)(C)C(C)(C)C)[C@@H](O)[C@H]2O[Si](C)(C)C(C)(C)C)c(=O)n(CCC(=O)O)c1=O | - | 18 µM
Cc1cc(C#N)cc(C)c1Oc1nc(Nc2ccc(C#N)cc2)ncc1SCC(=O)NCCN1CCOCC1 | MTT | 21.8 µM
CC(C)[C@H](NC(=O)OCc1ccccc1)C(=O)N[C@@H](Cc1ccccc1)[C@@H](O)[C@@H](NCc1ccccc1)C(=O)N[C@H](C(=O)NCc1ccccc1)C(C)C | - | >30 µM
CN1CCCn2c(nc(C(=O)NCc3ccc(F)cc3)c(O)c2=O)C1(C)C | microscopy | >1 µM
CC(C)CCC[C@@H](C)[C@H]1CC[C@H]2[C@@H]3CC[C@H]4C[C@@H](CCC=C(c5cc(Cl)c(O)c(C(=O)O)c5)c5cc(Cl)c(O)c(C(=O)O)c5)CC[C@]4(C)[C@H]3CC[C@]12C | - | >125 µM
CCc1c(Sc2ccccc2)n(COCc2ccc(Cl)cc2)c(=S)[nH]c1=O | - | 20 µM
CN1CCn2c(nc(C(=O)NCc3ccc(F)cc3)c(O)c2=O)C(N(C)S(C)(=O)=O)C1 | microscopy | >1 µM
Cc1cn([C@@H]2O[C@H](CO[Si](C)(C)C(C)(C)C)C3(OS(=O)(=O)C=C3N)[C@H]2O[Si](C)(C)C(C)(C)C)c(=O)n(CCCO/C(=C\C(=O)c2ccccc2)c2ccccc2)c1=O | - | ≥250 µM
CC(=O)OC[C@H]1O[C@@H](n2c(-c3ccccc3)cc(-c3ccccc3)c(C#N)c2=O)[C@H](OC(C)=O)[C@@H](OC(C)=O)[C@@H]1OC(C)=O | XTT | >16.5 µM
Nc1nc2c(ncn2[C@@H]2C=C[C@H](COP(=O)(O)OP(=O)(O)OP(=O)(O)O)C2)c(=O)[nH]1 | - | >200 µM
CN1CCn2c(nc(C(=O)NCc3ccc(F)cc3)c(O)c2=O)C(NCc2ccccc2)C1 | microscopy | >1 µM
Cc1cc(C)cc(Cc2c(I)c(=O)[nH]c(=O)n2COCc2ccccc2)c1 | XTT | 98.3 µM
Nc1ncnc2c1ncn2C12C=C[C@@H](CO)[C@@H]1C2 | MTT | >100 µg/mL
Cc1cc(C#N)cc(C)c1Oc1nc(Nc2ccc(C#N)cc2)ncc1SCC(=O)N1CCN(C(=O)OC(C)(C)C)CC1 | MTT | >208.4 µM

Again, the opening 4 rows:

{"structure": "Cc1cc(C#N)cc(C)c1Oc1nc(Nc2ccc(C#N)cc2)ncc1SCC(=O)Nc1ccc(S(C)(=O)=O)cc1", "read by": "MTT", "result": ">208.4 µM"}
{"structure": "Nc1nc(=O)n([C@H]2C[C@H](O)[C@@H](CO)O2)cc1[N+](=O)[O-]", "result": "38 µM"}
{"structure": "Cc1cn([C@@H]2O[C@H](CO[Si](C)(C)C(C)(C)C)C3(OS(=O)(=O)C=C3N)[C@H]2O[Si](C)(C)C(C)(C)C)c(=O)n(CCCCCCO/C(=C/C(=O)c2ccccc2)c2ccccc2)c1=O", "result": ">100 µM"}
{"structure": "COc1ccc(-c2cc(-c3ccccc3)c(C#N)c(=O)n2[C@@H]2O[C@H](COC(C)=O)[C@H](OC(C)=O)[C@H](OC(C)=O)[C@H]2OC(C)=O)cc1", "read by": "XTT", "result": ">11.4 µM"}